Pooled drug test results. Numbers come from NIAID ChemDB, via PubChem.

Shared fields: whole-cell or culture tests; species: Hepatitis B virus

a–b is a range or a potency band. ECn is the concentration giving n% inhibition of infection, replication or growth. An empty or dashed field is not shown. Lines come from different laboratories, so protocols vary.

| structure | strain | measure | method | cell line | result |
|---|---|---|---|---|---|
| C=CCn1c(=O)c(/C(=N\Nc2ccccc2)C(O)C(O)CO)nc2ccccc21 | - | EC50 | ELISA | HepG2 2.2.15 | 0.65 µM |
| Cc1c(C(=O)C(=O)NC2(c3cn[nH]c3)COC2)c(C)n(C)c1C(=O)Nc1ccc(F)c(C#N)c1 | - | EC50 | PCR | HepG2.2.15 | 0.001–0.0099 µM |
| CNC(=O)C(=O)N1CC[C@@H](NS(=O)(=O)c2cn(CC3CC3)c(C(=O)Nc3ccc(F)c(F)c3)c2F)C1 | - | EC50 | PCR | HepAD38 cells | 0.1–0.3 µM |
| C=C(C)[C@@H]1CC[C@]2(C(=O)OC)CC[C@]3(COC(=O)c4ccccc4)C(CCC4[C@@]5(C)CC[C@H](OC(C)=O)CC5C(C)(C)C[C@]43C)C12 | - | EC50 | ELISA | HepG2.2.15 | 8.9 µM |
| C[C@H](NC(=O)c1c2n(c(=O)n1-c1ccc(OCC(F)(F)F)cc1)CCN(C(=O)c1ccc(Br)c(Cl)c1)C2)c1ccc(O[C@H](C)C(N)=O)cc1F | - | EC50 | PCR | HepG2.117 | 0.1–0.5 µM |
| CCCCCC(=O)Nc1nc(N)nc2c1ncn2[C@H]1CO[C@@H](COP(=O)(N[C@@H](C)C(=O)OCC)Oc2ccccc2)O1 | - | EC50 | PCR | HepAD38 | 1.3 µM |
| N#CCOc1ccc(CCC(=O)c2c3n(c(=O)n2-c2ccc(OCC(F)(F)F)cc2)CCN(C(=O)c2ccc(Br)c(Cl)c2)C3)c(F)c1 | - | EC50 | PCR | HepG2.117 | 0.1–0.5 µM |
| O=C(Nc1ccc(-c2nc3cccc(F)c3o2)cc1)C1COCCO1 | - | EC50 | antigen / luminescence | Primary human hepatocytes (PHH) | 1.23 µM |
| COC(=O)[C@H](Cc1ccccc1)NP(=O)(OC[C@H]1C=C[C@@H](n2ccc3c(N)ncnc32)C1)Oc1ccccc1 | - | EC50 | hybridisation | HepG2 2.2.15 | 0.055 µM |
| CCCCCCCCCCCCCCCC(=O)O | - | EC50 | ELISA / antigen | HepG2.2.15 | 90.8 µM |
| Cn1nc2cc(NS(=O)(=O)NCCc3ccccn3)ccc2c1C(=O)Nc1ccc(F)c(Cl)c1 | - | EC50 | PCR | HepAD38 | 100–1000 µM |
| Cc1c(C(=O)C(=O)NC2(c3cn(C4CC4)nn3)CC(F)(F)C2)c(C)n(C)c1C(=O)Nc1ccc(F)c(C(F)(F)F)c1 | - | EC50 | PCR | HepG2.2.15 | 0.001–0.0099 µM |
| CCCC(=O)Nc1nc(N)nc2c1ncn2[C@H]1CO[C@@H](CO)O1 | - | EC90 | PCR | HepAD38 | >10 µM |
| NC(=O)c1cccc(-n2c(C(=O)NCc3ccccc3)c3n(c2=O)CCN(C(=O)c2ccc(Br)c(Cl)c2)C3)c1 | - | EC50 | PCR | HepG2.117 | >5 µM |
| Cn1cc(S(=O)(=O)Nc2cc3nn(C)c(C(=O)Nc4ccc(F)c(Cl)c4)c3cn2)cn1 | - | EC50 | PCR | HepAD38 | 100–1000 µM |
| C#CC1(NC(=O)C(=O)c2c(C)c(C(=O)Nc3ccc(F)c(C#N)c3)n(C)c2C)CC1 | - | EC50 | PCR | HepG2.2.15 | <0.001 µM |
| COc1ccc(CN2CCn3c(c4n(c3=O)CCN(C(=O)c3ccc(Br)cc3)C4)C2=O)cc1 | - | EC50 | PCR | HepG2.2.15 | >5 µM |
| CCCCCC(=O)Nc1nc(N)nc2c1ncn2[C@H]1CO[C@@H](CO)O1 | - | EC90 | PCR | HepAD38 | >10 µM |
| C#CC1(NC(=O)C(=O)c2c(C)c(C(=O)Nc3ccc(F)c(F)c3)n(C)c2C)COC1 | - | EC50 | PCR | HepG2.2.15 | 0.001–0.0099 µM |
| COc1ccc(-n2c(C(=O)NCc3ccccn3)c3n(c2=O)CCN(C(=O)c2ccc(Br)c(Cl)c2)C3)cc1 | - | EC50 | PCR | HepG2.117 | 0.5–5 µM |
| Cn1nc2cc(C(=O)Nc3cnn(CC4CC4)c3)ccc2c1C(=O)Nc1ccc(F)c(Cl)c1 | - | EC50 | PCR | HepAD38 | 100–1000 µM |
| C[C@@H](NC(=O)C(=O)N1CC[C@@H](NS(=O)(=O)c2cn(C)c(C(=O)Nc3cc(F)c(F)c(F)c3)c2F)C1)C(F)(F)F | - | EC50 | PCR | HepAD38 cells | <0.1 µM |
| CN1[C@H](C(=O)Nc2ccc(F)c(Cl)c2)C[C@H](c2ncc(-c3cn(C)cn3)s2)NS1(=O)=O | Genotype D | EC50 | PCR | - | 0.0101 µM |
| CCCCCCCCCC(=O)Nc1nc(N)nc2c1ncn2[C@H]1CO[C@@H](CO)O1 | - | EC90 | PCR | HepAD38 | >10 µM |
| C=C(C)[C@H](CC)CC[C@@H](C)[C@H]1CCC2C3C(=O)C=C4C[C@@H](O)CC[C@]4(C)C3CC[C@@]21C | - | EC50 | ELISA / antigen | HepG2.2.15 | 49.6 µM |
| CN(c1cnn(C)c1)S(=O)(=O)Nc1ccc2c(C(=O)Nc3ccc(F)c(Cl)c3)n(C)nc2c1 | - | EC50 | PCR | HepAD38 | 100–1000 µM |
| COc1ccc(-n2c(C(=O)NCc3ccc(CC(=O)O)cc3)c3n(c2=O)CCN(C(=O)c2ccc(Br)c(Cl)c2)C3)cc1 | - | EC50 | PCR | HepG2.117 | >5 µM |
| C#CC1(NC(=O)C(=O)c2c(C)c(C(=O)Nc3ccnc(Br)c3F)n(C)c2C)COC1 | - | EC50 | PCR | HepG2.2.15 | 0.01–0.099 µM |
| Cc1nn(C)cc1NS(=O)(=O)c1ccc2c(C(=O)Nc3ccc(F)c(Cl)c3)n(C)nc2c1 | - | EC50 | PCR | HepAD38 | 100–1000 µM |
| C[C@H](NC(=O)c1c2n(c(=O)n1-c1ccc(OC3CC3)cc1)CCN(C(=O)c1ccc(Br)c(Cl)c1)C2)c1ccc(OC(C)(C)C(N)=O)cc1F | - | EC50 | PCR | HepG2.117 | 0.1–0.5 µM |
| CCNC(=O)C(=O)N1CC[C@@H](NS(=O)(=O)c2c(F)c(C(=O)Nc3cc(F)c(F)c(F)c3)n3c2CCC3)C1 | - | EC50 | PCR | HepAD38 cells | <0.1 µM |
| C[C@H](NS(=O)(=O)Nc1ccc2c(C(=O)Nc3ccc(F)c(Cl)c3)n(C)nc2c1)c1ccccc1 | - | EC50 | PCR | HepAD38 | 100–1000 µM |
| CCCCCCCC(=O)Nc1nc(N)nc2c1ncn2[C@H]1CO[C@@H](CO)O1 | - | EC90 | PCR | HepAD38 | >10 µM |
| Cn1nc2cc(NS(=O)(=O)NCC3CN(Cc4ccccc4)C3)ccc2c1C(=O)Nc1ccc(F)c(Cl)c1 | - | EC50 | PCR | HepAD38 | >1000 µM |
| Nc1nc(N)c2ncn([C@H]3CO[C@@H](CO)O3)c2n1 | - | EC90 | PCR | HepAD38 | >100 µM |
| Nc1ccn([C@@H]2CS[C@H](CO)O2)c(=O)n1 | - | EC50 | ELISA / antigen | HepG2.2.15 | 41.3 µM |
| C#C[C@@H](NC(=O)C(=O)c1c(C)c(C(=O)Nc2ccc(F)c(C#N)c2)n(C)c1C)C(C)(C)C | - | EC50 | PCR | HepG2.2.15 | <0.001 µM |
| CCCC(=O)Nc1nc(N)nc2c1ncn2[C@H]1CO[C@@H](COP(=O)(N[C@@H](C)C(=O)OCC)Oc2ccccc2)O1 | - | EC90 | PCR | HepAD38 | >10 µM |
| Cn1nc2cc(NS(=O)(=O)c3nccs3)ccc2c1C(=O)Nc1ccc(F)c(Cl)c1 | - | EC50 | PCR | HepAD38 | 100–1000 µM |
| C[C@H](NP(=O)(OC[C@H]1C=C[C@@H](n2ccc3c(N)ncnc32)C1)Oc1ccccc1)C(=O)OCc1ccccc1 | - | EC50 | hybridisation | HepG2 2.2.15 | 0.1 µM |
| C=C(C)[C@H](CC)CC[C@@H](C)[C@H]1CCC2C3C(CC[C@@]21C)[C@@]1(C)CC[C@H](O)CC1=C[C@H]3O | - | EC50 | ELISA / antigen | HepG2.2.15 | 62 µM |
| CO[C@H]1CN(Cc2ccccc2)C(=O)c2c3n(c(=O)n2C1)CCN(C(=O)c1ccc(Br)c(Cl)c1)C3 | - | EC50 | PCR | HepG2.117 | 0.1–0.5 µM |
| CCCCCCCCCC(=O)Nc1nc(N)nc2c1ncn2[C@H]1CO[C@@H](COP(=O)(N[C@@H](C)C(=O)OCC)Oc2ccccc2)O1 | - | EC90 | PCR | HepAD38 | ≥10 µM |
| C[C@H](NP(=O)(OC[C@@H]1C=C[C@H](n2ccc3c(N)ncnc32)C1)Oc1ccccc1)C(=O)OCc1ccccc1 | - | EC50 | hybridisation | HepG2 2.2.15 | 11 µM |
| CN(C)C(=O)C(=O)N1CC[C@@H](NS(=O)(=O)c2cn(C)c(C(=O)Nc3cc(F)c(F)c(F)c3)c2F)C1 | - | EC50 | PCR | HepAD38 cells | <0.1 µM |
| Cc1cn([C@H]2C[C@H](N=[N+]=[N-])[C@@H](CO)O2)c(=O)[nH]c1=O | - | EC90 | PCR | HepAD38 | >10 µM |

Again, the opening 3 rows:

{"structure": "C=CCn1c(=O)c(/C(=N\\Nc2ccccc2)C(O)C(O)CO)nc2ccccc21", "measure": "EC50", "method": "ELISA", "cell line": "HepG2 2.2.15", "result": "0.65 µM"}
{"structure": "Cc1c(C(=O)C(=O)NC2(c3cn[nH]c3)COC2)c(C)n(C)c1C(=O)Nc1ccc(F)c(C#N)c1", "measure": "EC50", "method": "PCR", "cell line": "HepG2.2.15", "result": "0.001–0.0099 µM"}
{"structure": "CNC(=O)C(=O)N1CC[C@@H](NS(=O)(=O)c2cn(CC3CC3)c(C(=O)Nc3ccc(F)c(F)c3)c2F)C1", "measure": "EC50", "method": "PCR", "cell line": "HepAD38 cells", "result": "0.1–0.3 µM"}